Experimental data: PubChem BioAssay AID504761 (Drosophila RNAi Screening Center, 2011)
In all, the deposit lists about 22,000 reagents; this is a random part of those that have a named target and a result. Of all reagents, 116 (0.52%) got an active call. 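Calls depend on retest data that are not deposited; infection was ranked per plate without normalising between plates; the unit of the infection score is not given.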 Not all columns of the deposit are shown. Not given: the amount of reagent, the time to read-out.

Screen: 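Fly genes whose silencing reduces dengue virus type 2 infection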 (primary screen)
Cells: D.Mel-2 cells from Drosophila
Knock-down reagent: long dsRNA against Drosophila genes
Challenge: infection with dengue virus type 2; dose and infection time not stated
Read-out: 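Cells stained for dengue envelope protein and imaged; percent of infected cells per well on duplicate plates, ranked by infection, with stained nuclei counted for cell number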
Scale: infection score: higher = more virus-infected cells
Active means: 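Very low infection ranking in both replicate wells (chance probability at most 0.065), then a retest showing infection dropped 1.5-fold or more at p below 0.05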
Meaning of the calls: active = confirmed: knock-down lowers infection; inactive = not picked or not confirmed

Hibch (3-hydroxyisobutyryl-CoA hydrolase) [DRSC15705] gave infection score, replicate 1 = 18; inactive.
With knock-down of Hibch (3-hydroxyisobutyryl-CoA hydrolase) [DRSC27536], the screen gave infection score, replicate 1 = 10.9; inactive.
With knock-down of Tctp (Translationally controlled tumor protein) [DRSC15649] the results were infection score, replicate 1 = 7.55; inactive.
Against Tctp (Translationally controlled tumor protein) [DRSC29100] the deposit lists infection score, replicate 1 = 7.92; inactive.
For CysRS-m (Cysteinyl-tRNA synthetase, mitochondrial) [DRSC07129], the entry reads infection score, replicate 1 = 37.5; inactive.
CG7810 [DRSC03072] gave infection score, replicate 1 = 2.42; inactive.
Depletion of CG7810 [DRSC27997] gave: infection score, replicate 1 = 7.13; inactive.
sbm (sobremesa) [DRSC20185] scored infection score, replicate 1 = 5.33; inactive.
Knock-down of SkpD (SKP1-related D) [DRSC22208] resulted in: infection score, replicate 1 = 2.17; inactive.
CG9672 [DRSC20201] scored infection score, replicate 1 = 5.15; inactive.
Silencing of SsRbeta (Signal sequence receptor beta) [DRSC11290] came out at: infection score, replicate 1 = 2.92; inactive.
Knock-down of p38a (p38a MAP kinase) [DRSC16743] came out at: infection score, replicate 1 = 16.6; inactive.
Silencing of mAChR-B (muscarinic Acetylcholine Receptor, B-type) [DRSC16345] gave: infection score, replicate 1 = 1.91; inactive.
mAChR-B (muscarinic Acetylcholine Receptor, B-type) [DRSC26738] showed infection score, replicate 1 = 13.8; inactive.

Not a retest: 2 of the entries above.
CysRS-m (Cysteinyl-tRNA synthetase, mitochondrial) [DRSC07129] — infection score, replicate 1 = 37.5; outcome = inactive
CG7810 [DRSC03072] — infection score, replicate 1 = 2.42; outcome = inactive
